# Share of PSTVd loop 6 variants by leaf site

The measurements come from Wu et al. 2024 (doi:10.1371/journal.ppat.1012142).

Region: loop 6 of PSTVd (intermediate strain), upper and lower strand joined, each 5' to 3', the first 5 letters being the upper strand, closing pairs included. Wild type: UGACCGCGAG. Varied positions (N): UNNNCGNNNG.

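A pool of all variants was put on leaves of three Nicotiana benthamiana plants. Samples came from the inoculated region at 5 days, the leaf margin at 10 and upper systemic leaves at 12.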

Numbers give reads per thousand; 0 = not seen among the reads, higher = more abundant.
Each site shows the three plants.
"Pool" is the share in the plasmid pool used as inoculum, on the same scale.
The inoculated region was read from the minus strand, the other sites from the plus strand.
IR is the inoculated region, LM the leaf margin, Sys the systemic leaves.
Sequences that differ at fixed positions probably stem from PCR or sequencing errors, and defective variants can be carried along by functional ones.
Wild type was 20.7 per thousand in the pool and the most common sequence in every sample (inoculated region 195, 198, 203; leaf margin 629, 591, 734; systemic leaves 942, 870, 868).
Samples held 36,220 to 57,551 reads, so the smallest values rest on one or two reads.

UCUCCGGAGG (pool 0.118) read IR 0.139 / 0.108 / 0.0553; LM 0 / 0 / 0.0464; Sys 0 / 0 / 0.
UUGCCGUCUG (pool 0.824) read IR 0.104 / 0.126 / 0.129; LM 0.0276 / 0.126 / 0; Sys 0 / 0 / 0.
UGCUCGUAGG (pool 0.248) read IR 0.104 / 0.180 / 0.0369; LM 0 / 0 / 0; Sys 0 / 0 / 0.
UGCACGUCCG (pool 0.314) read IR 0.0348 / 0.0359 / 0.0922; LM 0 / 0 / 0; Sys 0 / 0 / 0.
UGAUCGGAAG (pool 0.183) read IR 0.782 / 0.701 / 0.498; LM 0 / 0.101 / 0.139; Sys 0 / 0 / 0.
UCGGCGCCCG (pool 0.327) read IR 0.122 / 0.0539 / 0.0738; LM 0 / 0 / 0; Sys 0 / 0 / 0.
UGGUCGUCCG (pool 0.157) read IR 0.104 / 0.0539 / 0.0184; LM 0 / 0 / 0; Sys 0 / 0 / 0.
UGAGCGUGGG (pool 0.222) read IR 0.0869 / 0.0719 / 0.111; LM 0 / 0 / 0; Sys 0 / 0 / 0.
UAGGCGAGCG (pool 0.314) read IR 0.0521 / 0.0539 / 0.0184; LM 0 / 0 / 0; Sys 0 / 0 / 0.
UCGUCGACAG (pool 0.209) read IR 0.104 / 0.144 / 0.0922; LM 0.0276 / 0 / 0.0232; Sys 0 / 0 / 0.
UUGCCGUGCG (pool 0.157) read IR 0.0521 / 0.0719 / 0.0553; LM 0 / 0 / 0.0232; Sys 0 / 0 / 0.
UUCGCGGGAG (pool 0.248) read IR 0.0348 / 0.0180 / 0.0369; LM 0.0276 / 0 / 0.0232; Sys 0 / 0 / 0.
UGUGCGACUG (pool 0.261) read IR 0.0869 / 0.108 / 0.129; LM 0.0276 / 0 / 0.0232; Sys 0 / 0 / 0.
UGAACGAACG (pool 0.144) read IR 0.156 / 0.0359 / 0.203; LM 0.0552 / 0 / 0.0696; Sys 0 / 0 / 0.
UUCGCGUAUG (pool 0.353) read IR 0.139 / 0.0539 / 0.129; LM 0.166 / 0 / 0; Sys 0 / 0 / 0.
UUGGCGUAAG (pool 0.118) read IR 0.0695 / 0.0180 / 0.0738; LM 0 / 0 / 0; Sys 0 / 0 / 0.
UGCUCGUAUG (pool 0.288) read IR 0.139 / 0.0898 / 0.0738; LM 0.221 / 0 / 0; Sys 0 / 0 / 0.
UUCUCGAGCG (pool 0.588) read IR 0.139 / 0.0898 / 0.0922; LM 0 / 0 / 0; Sys 0 / 0 / 0.
UAGCCGCUCG (pool 0.261) read IR 0.139 / 0.126 / 0.0553; LM 0.0276 / 0 / 0; Sys 0 / 0 / 0.
UCCACGAGGG (pool 0.170) read IR 0.0521 / 0.0719 / 0.111; LM 0 / 0 / 0; Sys 0 / 0 / 0.
UCGGCGGGAG (pool 0.288) read IR 0.122 / 0.0539 / 0.0922; LM 0 / 0 / 0; Sys 0 / 0 / 0.
UUGCCGCGGG (pool 0.235) read IR 0.0869 / 0.0898 / 0.0738; LM 0 / 0 / 0; Sys 0 / 0 / 0.
UAACCGCGUG (pool 0.170) read IR 0.712 / 0.647 / 0.406; LM 0.166 / 0.126 / 0.0928; Sys 0 / 0 / 0.
UGCCCGGAUG (pool 0.222) read IR 0.122 / 0.0719 / 0.0922; LM 0.0552 / 0 / 0; Sys 0 / 0 / 0.
UGAACGCUCG (pool 0.196) read IR 0.0695 / 0.162 / 0.184; LM 0.0276 / 0 / 0.0464; Sys 0 / 0 / 0.

Excerpt, the final 3 entries:

sequence,pool,IR,LM,Sys
UAACCGCGUG,0.170,0.712 / 0.647 / 0.406,0.166 / 0.126 / 0.0928,0 / 0 / 0
UGCCCGGAUG,0.222,0.122 / 0.0719 / 0.0922,0.0552 / 0 / 0,0 / 0 / 0
UGAACGCUCG,0.196,0.0695 / 0.162 / 0.184,0.0276 / 0 / 0.0464,0 / 0 / 0